PMC11274128, “Modification and Synergistic Studies of a Novel Frog Antimicrobial Peptide against Pseudomonas aeruginosa Biofilms” (Antibiotics, 2024)
Bridge positions count the residues as written; N and C are the ends. Ends that are not written are not given here.

How the values were obtained:
Experiment in all cases: Geometric mean of MICs and TI value
Conditions in all cases: HC10/GM; 512 μM used as HC10 since HC10 > 256 μM
G+ Bacteria = type: cell-based
Protocol: (§1) The therapeutic potential of antimicrobial agents was valued based on their selectivity toward bacteria in reference to erythrocytes. The TI value was calculated from the results of antibacterial and haemolysis experiments of peptides using the following formula:TI value = HC10 / GMMICs.
(§2) GM was the geometric mean of MICs against all tested bacteria.

G− Bacteria = type: cell-based
Protocol: as §1, §2

Yeast = type: cell-based, Candida albicans
Protocol: as §1, §2

Row | Substance | TI Value, G+ Bacteria (G+ Bacteria) | TI Value, G− Bacteria (G− Bacteria) | TI Value, Yeast (Yeast)
1 | GLLRGVLGAGKKIVCGLSGRC (disulfide 15-21 (inferred)) [Peptide 2057-C, N-terminus modified analogue of Nigrosin-6VL] | 4.00 | 8.00 | 2.00
2 | GLLSGVLGAGKKIVCGLSGR- [Peptide 1885-R, Rana Box modified analogue of Nigrosin-6VL] | 4.00 | 11.31 | 2.00
3 | H-GLLSGVLGAGKKIVGLSGR-OH [Peptide 1782-R] | 2.00 | 2.38 | 2.00
